US11779630B2, “Peptides and methods of using the same” (SERPIN PHARMA, LLC, priority 2020, dated 2023)
In brackets after ≈: the same amount, converted by molar mass.

What was measured:
[1] = tested on: Microglia with HIV on a BBB insert; assay: HIV induced cytokines in microglia on 3D-BBB trans-well insert; type: cell-based; settings: increasing concentrations up to 100 μg/ml, 24 hours
[2] = tested on: LPS stimulated human immune cells (THP1 monocytes); type: cell-based; settings: various doses and time-points
[3] = tested on: VEEV TC83 luciferase virus
[4] = tested on: EEEV nano-luciferase reporter virus; settings: 16 h
Rift Valley fever virus = settings: Vero 76
[5] = tested on: Western equine encephalitis virus; settings: Vero 76
Influenza A H1N1 = settings: MDCK
Yellow Fever Virus = settings: Huh7

## CCCC[C@H](NC(=O)[C@H](CC(C)C)NC(=O)[C@H](Cc1ccccc1)NC(=O)[C@@H](NC(=O)[C@H](Cc1ccccc1)NC(=O)[C@@H]1CCCN1C(=O)[C@H](CCCCN)NC(=O)[C@H](CC(N)=O)NC(=O)[C@H](Cc1ccccc1)NC(=O)[C@H](CCCCN)NC(=O)[C@@H](NC(C)=O)C(C)C)C(C)C)C(=O)N[C@H](C(=O)N[C@@H](CCC(=O)O)C(=O)N[C@@H](CCC(N)=O)C(=O)N[C@@H](CC(N)=O)C(=O)N[C@H](C(=O)N[C@@H](CCCCN)C(N)=O)[C@@H](C)O)[C@@H](C)CC [VKFNKPFVFL[Nle]IEQNTK]
[1]
  HIV induced IL-6, MCP-1 and IL-8: significantly decreased
[2]
  top canonical pathways changed by LPS, VEEV or Rift Valley Fever Virus: counteracted these changes, restoring the profile back to a normal state
[3]
  VEEV replication (luminescence): reduced VEEV replication
[3]; 16 h
  EC50, VEEV replication: 67.12 µg/mL (≈ 31.9 µM)
[4]
  EC50, EEEV replication: 0.84 µg/mL (≈ 0.399 µM)
Rift Valley fever virus
  EC50: 17 µg/mL (≈ 8.07 µM)
[5]
  EC50: 63 µg/mL (≈ 29.9 µM)
Influenza A H1N1
  EC50: 47 µg/mL (≈ 22.3 µM)
Yellow Fever Virus
  EC50: 47 µg/mL (≈ 22.3 µM)
